In the experiment the target is T1, ribonuclease B (RNase B), bovine (bovine, UniProt P61823 27-150, N-linked high-mannose (Man5) oligosaccharides; biotinylated with Sulfo-NHS-LC-Biotin).
T1 sequence (looked up): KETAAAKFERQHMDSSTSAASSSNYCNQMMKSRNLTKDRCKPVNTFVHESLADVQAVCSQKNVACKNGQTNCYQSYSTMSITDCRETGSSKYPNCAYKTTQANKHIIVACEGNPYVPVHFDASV
Kind of experiment: BLI; fimbriae on RNase B probe in the presence of 4 µM Fab824; 1:1 model. (BLI is a label-free optical method that tracks binding on a fibre tip over time.)

B1: FimH^FocH (other)
chain: FACKTANGTAIPIGGGSANVYVNLAPVVNVGQNLVVDLSTQIFCHNDYPETITDYVTLQRGSAYGGVLSNFSGTVKYSGSSYPFPTTSETPRVVYNSRTDKPWPVALYLTPVSSAGGVAIKAGSLIAVLILRQTNNYNSDDFQFVWNIYANNDVVVPTGGCDVSARDVTVTLPDYPGSVPIPLTVRCDQTQSVSYTLSGSVADAGNSIFTNTASFSPAQGVGVQLTRNGTIIPANNTVSLGAVGTSAVSLGLTANYARTGGQVTAGNVQSIIGVTFVYQ
notes: also called LD^A27V-PD^FocH
B1: the Kd (as a rule, the concentration at which binding is half-saturated) was determined as 66.6 nM; the koff (in general, the rate constant with which the complex falls apart) stood at 0.00047 s⁻¹; the kon – broadly, the rate constant with which the complex forms – was 7100 M⁻¹ s⁻¹.

(Values after patent US20240165214A1 (University of Washington, published 2024).)
